Reference: PubChem BioAssay AID1259414 (Drosophila RNAi Screening Center, 2018)

Screen: 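Host factors increasing or decreasing Wolbachia levels in cultured fly cells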 (primary screen)
Cells: Drosophila JW18 cells infected with Wolbachia
Knock-down reagent: long dsRNA against Drosophila genes, 0.25 µg dsRNA per well of a 384-well plate
Time to read-out: 5 days
Challenge: cells persistently infected with Wolbachia before knock-down; no added drug
Measured: 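Imaged fluorescence in situ signal for Wolbachia 23S rRNA per DAPI-counted host cell, given as a robust z-score within each plate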
Reading the numbers: Wolbachia per cell robust z: higher = more Wolbachia per host cell than the plate typical
Rule for the call: 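Hit when robust z is 1.5 or more, or -1.5 or less, in at least two of three replicates; excludes dsRNAs with several or no targets, genes not expressed in JW18 and well A1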
The screen tested about 24,000 reagents; below is a random part of those that have a named target and a result. Of all reagents, about 1,210 (5%) were called active. 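Inactive calls also include excluded dsRNAs with several or no targets, genes unexpressed in JW18, and well A1, regardless of score.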 Names joined by + are all predicted targets of the reagent. Reagent sequences are not shown.

predicted target	amplicon	Wolbachia per cell robust z, rep 1	Wolbachia per cell robust z, rep 2	Wolbachia per cell robust z, rep 3	outcome
Tmtc1	DRSC00151	-1.27	-1.46	-0.497	inactive
AlaRS	DRSC01851	-0.915	0.734	0.601	inactive
CG7742	DRSC03066	0.228	0.153	0.221	inactive
CG32694	DRSC17844	-0.052	0.0407	0.433	inactive
CG32694	DRSC17855	0.781	-5.47	-1.13	inactive
CG32694	DRSC22670	-0.526	-0.0143	-0.798	inactive
CG32694	DRSC25730	-0.626	-1.1	-2.89	inactive
CG32694	DRSC25731	0.508	0.608	-1.15	inactive
CG30350	DRSC07690	0.786	-0.0116	0.296	inactive
Decay	DRSC16930	-0.0178	-0.577	-7.45	inactive
Myc	DRSC23360	0.351	-0.592	0.269	inactive
Myc	DRSC40847	0.604	0.4	-0.888	inactive
RunxA	DRSC20498	-0.953	-1.42	-3.41	inactive
RunxA	DRSC20524	-3.23	-0.179	-0.272	inactive
RunxA	DRSC21915	0.605	0.245	-0.0101	inactive
RunxA	DRSC25225	-0.0131	1.36	-0.183	inactive
RunxA	DRSC27250	1.16	-0.101	0.499	inactive
IntS12	DRSC15818	-0.677	-0.692	-0.0104	inactive
CG10680	DRSC02093	-3.69	-0.69	-0.796	inactive
CG12784	DRSC14539	-1.17	-0.196	-0.392	inactive
CG33770	DRSC11717	-1.09	-1.04	-0.955	inactive
Axn	DRSC14120	1.83	0.357	0.0883	inactive
Axn	DRSC29423	1.88	-0.489	-2.05	inactive
CG43675 + drn	DRSC15147	1.75	0.731	1.49	inactive
fry	DRSC08993	0.911	1.55	0.615	inactive
fry	DRSC10172	0.0699	-0.331	0.224	inactive
fry	DRSC10709	-3.36	0.32	0.662	inactive
fry	DRSC10712	-5.75	0.417	0.927	inactive
FRG1	DRSC10648	-1.51	-0.0846	0.0716	inactive
CG30076	DRSC05494	1.83	0.705	0.824	inactive
CG30076	DRSC28026	-1.14	-1.35	-1.23	inactive
CG10026	DRSC02010	-1.65	-1.13	-0.46	inactive
unc-4	DRSC20381	0.693	0.716	-2.11	inactive
unc-4	DRSC22074	-1.2	0.24	0.682	inactive
unc-4	DRSC25459	-2.58	-0.497	-0.635	inactive
CG15480	DRSC02490	-4.65	-1.76	-0.987	inactive
CG15480	DRSC24919	-2.19	2.03	-8.49	inactive
Snoo	DRSC03004	-0.11	0.587	-0.653	inactive
Snoo	DRSC03035	0.706	-3.16	-1.05	inactive
Nipped-B	DRSC07815	1.48	1.49	1.31	inactive
Nipped-B	DRSC29151	1.02	3.33	5.32	active
Traf4	DRSC00445	-0.179	0.925	-4	inactive
Traf4	DRSC00794	-2.57	-3.89	-0.444	active
CG12084	DRSC08247	0.451	0.662	-0.266	inactive
CG12084	DRSC26814	0.0913	0.211	0.201	inactive
CG9853	DRSC12343	0.803	0.399	0.189	inactive
CG9853	DRSC22840	-2.26	-0.499	0.0584	inactive
CG9853	DRSC28399	1.48	1.14	-0.086	inactive
CG43106	DRSC04279	0.013	0.998	0.785	inactive
CR10991	DRSC12156	-0.16	0.0143	-1.24	inactive
SmD1	DRSC09800	0.966	-0.44	-7.72	inactive
SmD1	DRSC28571	1.53	1.68	3.75	active
SmD1	DRSC41299	-0.0182	1.5	-2.24	inactive
Cyp12e1	DRSC16622	0.516	0.146	0.449	inactive
Cyp12e1	DRSC41511	0.467	-0.167	0.497	inactive
CG44774	DRSC18342	0.537	-6.98	-4.93	active
CG44774	DRSC27595	-0.204	-0.31	0.245	inactive
Pka-C3	DRSC09402	-1.86	-0.89	-4.81	inactive
Pka-C3	DRSC11254	0.707	-0.677	0.38	inactive
Pka-C3	DRSC25050	-0.194	0.829	-0.169	inactive
CG15109	DRSC06536	-0.181	-0.826	-0.32	inactive
CG15109	DRSC26040	0.801	0.0224	-0.843	inactive
Achl	DRSC06665	0.41	1.09	0.643	inactive
Achl	DRSC29366	-1.78	-0.114	0.0434	inactive
PK2-R1	DRSC16447	-0.317	-0.462	0.214	inactive
PK2-R1	DRSC24363	-1.65	-0.187	-0.546	inactive
Ehbp1	DRSC06561	1.2	0.333	1.65	inactive
Ehbp1	DRSC30006	1.89	0.306	-0.348	inactive

7 neighbouring records already listed, quoted:
predicted target	amplicon	Wolbachia per cell robust z, rep 1	Wolbachia per cell robust z, rep 2	Wolbachia per cell robust z, rep 3	outcome
CG32694	DRSC25731	0.508	0.608	-1.15	inactive
CG30350	DRSC07690	0.786	-0.0116	0.296	inactive
Decay	DRSC16930	-0.0178	-0.577	-7.45	inactive
Myc	DRSC23360	0.351	-0.592	0.269	inactive
Myc	DRSC40847	0.604	0.4	-0.888	inactive
RunxA	DRSC20498	-0.953	-1.42	-3.41	inactive
RunxA	DRSC20524	-3.23	-0.179	-0.272	inactive
